Assay results from PMC12678819, “Targeting bacterial kinases as a strategy to counteract antibiotic resistance” (2025).

By UniProt entry, the sequences of proteins in these tests, tags left out. Residues count along the entry.
UniProt O68183, 1-301: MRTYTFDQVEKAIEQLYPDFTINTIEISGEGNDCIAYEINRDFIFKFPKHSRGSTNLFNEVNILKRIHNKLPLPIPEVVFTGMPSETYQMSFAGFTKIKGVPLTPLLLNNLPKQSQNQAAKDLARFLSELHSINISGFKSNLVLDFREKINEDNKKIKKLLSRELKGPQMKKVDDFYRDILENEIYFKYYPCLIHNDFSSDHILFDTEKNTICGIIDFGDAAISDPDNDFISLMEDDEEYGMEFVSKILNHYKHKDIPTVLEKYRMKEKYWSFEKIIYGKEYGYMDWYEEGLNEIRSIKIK

What was measured:
[1] = tested on: Pseudomonas aeruginosa C0214; experiment: Bacterial growth / checkerboard assay with kanamycin A; settings: for growth curve reading: panel C
[2] = biological target: T1, APH(2”)-IVa (Enterococcus casseliflavus, UniProt O68183); experiment: Pyruvate Kinase-Lactate Dehydrogenase-coupled enzyme assay
[3] = biological target: T1, APH(2”)-IVa; experiment: Thermal shift assay; settings: 500 µM compound

Cc1cc(-c2c(Cl)cnc3[nH]ccc23)[nH]n1
growth curve reading ([1]; Kanamycin A 16 µg·mL-1, [10] 125 µM, 10 h): 0.2374 | growth curve reading ([1]; Kanamycin A 16 µg·mL-1, [10] 125 µM, 11 h): 0.2715 | growth curve reading ([1]; Kanamycin A 16 µg·mL-1, [10] 125 µM, 12 h): 0.2932 | growth curve reading ([1]; Kanamycin A 16 µg·mL-1, [10] 125 µM, 13 h): 0.2969 | growth curve reading ([1]; Kanamycin A 16 µg·mL-1, [10] 125 µM, 14 h): 0.2958 | growth curve reading ([1]; Kanamycin A 16 µg·mL-1, [10] 125 µM, 15 h): 0.2933 | growth curve reading ([1]; Kanamycin A 16 µg·mL-1, [10] 125 µM, 16 h): 0.2937 | growth curve reading ([1]; Kanamycin A 16 µg·mL-1, [10] 125 µM, 17 h): 0.2921 | growth curve reading ([1]; Kanamycin A 16 µg·mL-1, [10] 125 µM, 18 h): 0.2906 | growth curve reading ([1]; Kanamycin A 16 µg·mL-1, [10] 125 µM, 19 h): 0.2898 | growth curve reading ([1]; Kanamycin A 16 µg·mL-1, [10] 125 µM, 20 h): 0.2900 | growth curve reading ([1]; Kanamycin A 16 µg·mL-1, [10] 125 µM, 21 h): 0.2904 | growth curve reading ([1]; Kanamycin A 16 µg·mL-1, [10] 125 µM, 22 h): 0.2888 | growth curve reading ([1]; Kanamycin A 16 µg·mL-1, [10] 125 µM, 23 h): 0.2892 | growth curve reading ([1]; Kanamycin A 16 µg·mL-1, [10] 125 µM, 24 h): 0.2965 | growth curve reading ([1]; Kanamycin A 16 µg·mL-1, [10] 250 µM, 8 h): 0.1704 | growth curve reading ([1]; Kanamycin A 16 µg·mL-1, [10] 250 µM, 9 h): 0.2121 | growth curve reading ([1]; Kanamycin A 16 µg·mL-1, [10] 250 µM, 10 h): 0.2517 | growth curve reading ([1]; Kanamycin A 16 µg·mL-1, [10] 250 µM, 11 h): 0.2738 | growth curve reading ([1]; Kanamycin A 16 µg·mL-1, [10] 250 µM, 12 h): 0.2998 | growth curve reading ([1]; Kanamycin A 16 µg·mL-1, [10] 250 µM, 13 h): 0.3126 | growth curve reading ([1]; Kanamycin A 16 µg·mL-1, [10] 250 µM, 14 h): 0.3130 | growth curve reading ([1]; Kanamycin A 16 µg·mL-1, [10] 250 µM, 15 h): 0.3098 | growth curve reading ([1]; Kanamycin A 16 µg·mL-1, [10] 250 µM, 16 h): 0.3071 | growth curve reading ([1]; Kanamycin A 16 µg·mL-1, [10] 250 µM, 17 h): 0.3057 | growth curve reading ([1]; Kanamycin A 16 µg·mL-1, [10] 250 µM, 18 h): 0.2992 | growth curve reading ([1]; Kanamycin A 16 µg·mL-1, [10] 250 µM, 19 h): 0.3044 | growth curve reading ([1]; Kanamycin A 16 µg·mL-1, [10] 250 µM, 20 h): 0.3052 | growth curve reading ([1]; Kanamycin A 16 µg·mL-1, [10] 250 µM, 21 h): 0.3016 | growth curve reading ([1]; Kanamycin A 16 µg·mL-1, [10] 250 µM, 22 h): 0.3045 | growth curve reading ([1]; Kanamycin A 16 µg·mL-1, [10] 250 µM, 23 h): 0.3079 | growth curve reading ([1]; Kanamycin A 16 µg·mL-1, [10] 250 µM, 24 h): 0.3123 | growth curve reading ([1]; Kanamycin A 16 µg·mL-1, [10] 500 µM, 8 h): 0.1687 | growth curve reading ([1]; Kanamycin A 16 µg·mL-1, [10] 500 µM, 9 h): 0.1992 | growth curve reading ([1]; Kanamycin A 16 µg·mL-1, [10] 500 µM, 10 h): 0.2224 | growth curve reading ([1]; Kanamycin A 16 µg·mL-1, [10] 500 µM, 11 h): 0.2556 | growth curve reading ([1]; Kanamycin A 16 µg·mL-1, [10] 500 µM, 12 h): 0.2817 | growth curve reading ([1]; Kanamycin A 16 µg·mL-1, [10] 500 µM, 13 h): 0.2938 | growth curve reading ([1]; Kanamycin A 16 µg·mL-1, [10] 500 µM, 14 h): 0.2963 | growth curve reading ([1]; Kanamycin A 16 µg·mL-1, [10] 500 µM, 15 h): 0.2950 | growth curve reading ([1]; Kanamycin A 16 µg·mL-1, [10] 500 µM, 16 h): 0.2951 | growth curve reading ([1]; Kanamycin A 16 µg·mL-1, [10] 500 µM, 17 h): 0.2925 | growth curve reading ([1]; Kanamycin A 16 µg·mL-1, [10] 500 µM, 18 h): 0.2912 | growth curve reading ([1]; Kanamycin A 16 µg·mL-1, [10] 500 µM, 19 h): 0.2915 | growth curve reading ([1]; Kanamycin A 16 µg·mL-1, [10] 500 µM, 20 h): 0.2905 | growth curve reading ([1]; Kanamycin A 16 µg·mL-1, [10] 500 µM, 21 h): 0.2887 | growth curve reading ([1]; Kanamycin A 16 µg·mL-1, [10] 500 µM, 22 h): 0.2856 | growth curve reading ([1]; Kanamycin A 16 µg·mL-1, [10] 500 µM, 23 h): 0.2837 | growth curve reading ([1]; Kanamycin A 16 µg·mL-1, [10] 500 µM, 24 h): 0.2825 | growth curve reading ([1]; Kanamycin A 32 µg·mL-1, [10] 125 µM, 8 h): 0.0004 | growth curve reading ([1]; Kanamycin A 32 µg·mL-1, [10] 125 µM, 9 h): 0.0011 | growth curve reading ([1]; Kanamycin A 32 µg·mL-1, [10] 125 µM, 10 h): 0.0035 | growth curve reading ([1]; Kanamycin A 32 µg·mL-1, [10] 125 µM, 11 h): 0.0069 | growth curve reading ([1]; Kanamycin A 32 µg·mL-1, [10] 125 µM, 12 h): 0.0142 | growth curve reading ([1]; Kanamycin A 32 µg·mL-1, [10] 125 µM, 13 h): 0.0274 | growth curve reading ([1]; Kanamycin A 32 µg·mL-1, [10] 125 µM, 14 h): 0.0533 | growth curve reading ([1]; Kanamycin A 32 µg·mL-1, [10] 125 µM, 15 h): 0.0888 | growth curve reading ([1]; Kanamycin A 32 µg·mL-1, [10] 125 µM, 16 h): 0.1283 | growth curve reading ([1]; Kanamycin A 32 µg·mL-1, [10] 125 µM, 17 h): 0.1706 | growth curve reading ([1]; Kanamycin A 32 µg·mL-1, [10] 125 µM, 18 h): 0.2164 | growth curve reading ([1]; Kanamycin A 32 µg·mL-1, [10] 125 µM, 19 h): 0.2596 | growth curve reading ([1]; Kanamycin A 32 µg·mL-1, [10] 125 µM, 20 h): 0.2954 | growth curve reading ([1]; Kanamycin A 32 µg·mL-1, [10] 125 µM, 21 h): 0.3102 | growth curve reading ([1]; Kanamycin A 32 µg·mL-1, [10] 125 µM, 22 h): 0.3168 | growth curve reading ([1]; Kanamycin A 32 µg·mL-1, [10] 125 µM, 23 h): 0.3188 | growth curve reading ([1]; Kanamycin A 32 µg·mL-1, [10] 125 µM, 24 h): 0.3177 | effect of added inhibitor on kanamycin MIC ([1]; P. aeruginosa C0214, 125-500 µM inhibitor): did not change the MIC value | OD600nm ([1]; inhibitor 125 µM, KanaA 0 µg.mL-1): 0.3108 | OD600nm ([1]; inhibitor 125 µM, KanaA 8 µg.mL-1): 0.3030 | OD600nm ([1]; inhibitor 125 µM, KanaA 16 µg.mL-1): 0.2958 | OD600nm ([1]; inhibitor 125 µM, KanaA 32 µg.mL-1): 0.2009 | OD600nm ([1]; inhibitor 125 µM, KanaA 64 µg.mL-1): 0.00025 | OD600nm ([1]; inhibitor 125 µM, KanaA 128 µg.mL-1): -5e-5 | OD600nm ([1]; inhibitor 125 µM, KanaA 256 µg.mL-1): -0.0007 | OD600nm ([1]; inhibitor 125 µM, KanaA 512 µg.mL-1): 0.0005 | OD600nm ([1]; inhibitor 125 µM, KanaA 1024 µg.mL-1): -0.0009 | OD600nm ([1]; inhibitor 125 µM, KanaA 2048 µg.mL-1): -0.0004 | OD600nm ([1]; inhibitor 125 µM, KanaA 4096 µg.mL-1): 0.0005 | OD600nm ([1]; inhibitor 250 µM, KanaA 0 µg.mL-1): 0.3043 | OD600nm ([1]; inhibitor 250 µM, KanaA 8 µg.mL-1): 0.2952 | OD600nm ([1]; inhibitor 250 µM, KanaA 16 µg.mL-1): 0.2944 | OD600nm ([1]; inhibitor 250 µM, KanaA 32 µg.mL-1): 0.1366 | OD600nm ([1]; inhibitor 250 µM, KanaA 64 µg.mL-1): -0.0017 | OD600nm ([1]; inhibitor 250 µM, KanaA 128 µg.mL-1): -0.0004 | OD600nm ([1]; inhibitor 250 µM, KanaA 256 µg.mL-1): -0.0010 | OD600nm ([1]; inhibitor 250 µM, KanaA 512 µg.mL-1): -0.0009 | OD600nm ([1]; inhibitor 250 µM, KanaA 1024 µg.mL-1): -0.0027 | OD600nm ([1]; inhibitor 250 µM, KanaA 2048 µg.mL-1): -0.00055 | OD600nm ([1]; inhibitor 250 µM, KanaA 4096 µg.mL-1): -0.00015 | OD600nm ([1]; inhibitor 500 µM, KanaA 0 µg.mL-1): 0.2873 | OD600nm ([1]; inhibitor 500 µM, KanaA 8 µg.mL-1): 0.2780 | OD600nm ([1]; inhibitor 500 µM, KanaA 16 µg.mL-1): 0.2409 | OD600nm ([1]; inhibitor 500 µM, KanaA 32 µg.mL-1): 0.1090 | OD600nm ([1]; inhibitor 500 µM, KanaA 64 µg.mL-1): -0.0012 | OD600nm ([1]; inhibitor 500 µM, KanaA 128 µg.mL-1): -0.0019 | OD600nm ([1]; inhibitor 500 µM, KanaA 256 µg.mL-1): -0.0015 | OD600nm ([1]; inhibitor 500 µM, KanaA 512 µg.mL-1): -0.0019 | OD600nm ([1]; inhibitor 500 µM, KanaA 1024 µg.mL-1): -0.00095 | OD600nm ([1]; inhibitor 500 µM, KanaA 2048 µg.mL-1): -0.0023 | OD600nm ([1]; inhibitor 500 µM, KanaA 4096 µg.mL-1): -5e-5 | effect of compound alone on bacterial growth ([1]; no kanamycin): did not affect bacterial growth | Inhibition (%) at 10 µM ([2]; 10 µM compound): 89% | Ki ([2]; 25°C, competitive vs MgATP, 100 µM kanamycin A): 360 nM | ΔTm (°C) at 500 µM [3]: 2.27 °C
